Measured values from several laboratories, pooled; numbers as filed in NIAID ChemDB.

Common to all: target-level tests; agent: HIV-1; target: Reverse transcriptase; measure: Ki

Rows are shuffled and stem from different studies.

{"structure": "Cc1cn([C@H]2C=C[C@@H](COP(=O)(O)OP(=O)(O)OP(=O)(O)O)O2)c(=O)[nH]c1=O", "method": "nucleotide incorporation / radiometric", "changes": "RT-M184V", "value": "0.19 µM"}
{"structure": "COc1ccc2c(c1)N(C(=O)OC(C)C)[C@@H](CSC)C(=S)N2", "strain or isolate": "IIIB", "method": "RT activity", "changes": "RT-V106A", "value": "0.028 µM"}
{"structure": "O=C1c2ccncc2C(=O)N1CCNC(=S)Nc1ccc(Br)cn1", "method": "nucleotide incorporation", "changes": "RT-V106A", "value": "7.2 µM"}
{"structure": "O=P(O)(O)OP(=O)(O)O", "changes": "RT-Q161L", "value": "2500 µM"}
{"structure": "Oc1ccc(CCNC(=S)Nc2ccc(Br)cn2)cc1", "method": "scintillation proximity", "value": "104 µM"}
{"structure": "O=C(O)Cn1cnc2c(=O)[nH]c(NC(=O)OCc3ccccc3)nc21", "strain or isolate": "WT", "method": "nucleotide incorporation / radiometric", "value": "4.7 µM"}
{"structure": "O=C(O)c1c[nH]c2ccc(Cl)cc2c1=O", "method": "nucleotide incorporation / radiometric", "value": "6.2 µM"}
{"structure": "Cc1ccc2c(c1)n(CCNC(=S)Nc1ccc(Br)cn1)c(=O)c1cccn12", "method": "nucleotide incorporation", "changes": "RT-V106A", "value": "0.08 µM"}
{"structure": "COc1ccc(CCNC(=S)Nc2ccc(Br)cn2)cc1", "method": "scintillation proximity", "value": "1.2 µM"}
{"structure": "Cc1cc(C)cc(C(=O)c2cc(Cl)ccc2OCCN2CCC(=O)NC2=O)c1", "method": "RT activity", "changes": "K103N", "setting": "pseudotyped", "value": "33 µM"}
{"structure": "Nc1ncnc2c1ncn2[C@H]1CC[C@@H](COP(=O)(O)OP(=O)(O)OP(=O)(O)O)O1", "method": "nucleotide incorporation / radiometric", "changes": "RT-Q151M", "value": "1.3 µM"}
{"structure": "Cc1cc(C)cc(C(=O)c2cc(Cl)ccc2OCCN2C(=O)NC(=O)C(C)C2C)c1", "method": "RT activity", "setting": "pseudotyped", "value": "0.08 µM"}
{"structure": "Cc1cc2c(cc1C)n1cccc1c(=O)n2CCNC(=S)Nc1ccc(Br)cn1", "method": "nucleotide incorporation", "value": "0.05 µM"}
{"structure": "Cc1c(Cc2c(F)cccc2F)nc(N(C)C)[nH]c1=O", "method": "nucleotide incorporation / radiometric", "value": "0.9 µM"}
{"structure": "Cc1cn([C@H]2CC[C@@H](COP(=O)(O)OP(=O)(O)OP(=O)(O)O)O2)c(=O)[nH]c1=O", "method": "RT activity", "changes": "RT-Y181I", "value": "0.07 µM"}
{"structure": "O=c1c2cccn2c2ccccc2n1CCNC(=S)Nc1ccc(Cl)cn1", "method": "nucleotide incorporation", "changes": "RT-Y181I", "value": ">5 µM"}
{"structure": "CCOCn1c(Cc2ccccc2)c(C(C)C)c(=O)[nH]c1=O", "strain or isolate": "IIIB", "method": "RT activity", "changes": "RT-P225H", "value": "0.73 µM"}
{"structure": "Cc1c(C(C)c2c(F)cccc2F)nc(N(C)C)[nH]c1=O", "method": "nucleotide incorporation / radiometric", "changes": "RT-L100I", "value": "1.2 µM"}
{"structure": "Nc1ccn([C@@H]2CS[C@H](COP(=O)(O)OP(=O)(O)OP(=O)(O)O)O2)c(=O)n1", "method": "nucleotide incorporation / radiometric", "changes": "RT-T215Y", "value": "3.4 µM"}
{"structure": "O=c1c2cccn2c2cc(Cl)c(Cl)cc2n1CCNC(=S)Nc1ccc(Br)cn1", "method": "nucleotide incorporation", "changes": "RT-Y181I", "value": "0.3 µM"}
{"structure": "Nc1ncnc2c1ncn2[C@@H]1O[C@H](COP(=O)(O)OP(=O)(O)OP(=O)(O)O)C[C@@H]1F", "method": "nucleotide incorporation / radiometric", "changes": "RT-K65R", "value": "29 µM"}
{"structure": "Fc1ccc(CCNC(=S)Nc2ccc(Br)cn2)cc1", "method": "scintillation proximity", "value": "7.8 µM"}

Repeating the final 2 entries:

Nc1ncnc2c1ncn2[C@@H]1O[C@H](COP(=O)(O)OP(=O)(O)OP(=O)(O)O)C[C@@H]1F ; method: nucleotide incorporation / radiometric ; changes: RT-K65R ; value: 29 µM
Fc1ccc(CCNC(=S)Nc2ccc(Br)cn2)cc1 ; method: scintillation proximity ; value: 7.8 µM